Results reported in PubChem BioAssay AID652162 (Broad Institute, 2013).
Only a part is listed here, and it is no random draw. Calls of active or inactive are those of the source. Rule as the data show it: active = inhibition above about 10%; inactive = the rest.

Biological target: Toxin B (Clostridioides difficile) (UniProt P18177)
Test: TcdB glycohydrolase inhibitors, primary screen, biochemical, single point, plate reader (AID 652162)
Conditions: TcdB glycohydrolase enzymatic assay, at 9.99 µM, hits give high values

SMILES | inhibition
COc1ccc(Cl)cc1C(=O)NCC1(N2CCOCC2)CCCCC1 | inactive: 1.08%
O=C(NCC1(N2CCCCC2)CCCCC1)c1ccc(Cl)s1 | inactive: -0.233%
N#CC1(Nc2ccccc2)CCN(Cc2ccccc2)CC1 | inactive: -1.08%
O=c1[nH]c2ccccc2n1C1CCN(C(c2cc3ccccc3o2)c2nnnn2C2CCCCC2)CC1 (stereo not given) | inactive: -0.144%
O=C(OC1CN2CCC1CC2)C1c2ccccc2Oc2ccccc21 (stereo not given) | inactive: -0.255%
CCCCn1nnnc1C(c1ccc(OC)cc1)N1CCC(n2c(=O)[nH]c3ccccc32)CC1 (stereo not given) | inactive: 1.42%
CCOC(=O)N1CCC(Nc2ccc(OC)cc2)CC1 | inactive: 0.091%
Cc1cc(C)cc(N(C(=O)c2ccccc2)C2CCN(C(=O)OC(C)(C)C)CC2)c1 | inactive: 0.572%
O=C(NCC1(N2CCCCC2)CCCCC1)c1ccc(Cl)nc1 | inactive: -0.501%
O=c1[nH]c2ccccc2n1C1CCN(C(c2ccccc2OC(F)(F)F)c2nnnn2C2CCCCC2)CC1 (stereo not given) | inactive: 0.15%
Cc1cccc(NC2(C#N)CCN(Cc3ccccc3)CC2)c1 | inactive: -8.85%
CSc1ccccc1C(=O)NCC1(N2CCCCC2)CCCCC1 | inactive: -0.584%
CC(C)(C)OC(=O)N1CCC(N(C(=O)c2ccccc2)c2ccc(F)cc2)CC1 | inactive: 1.42%
COc1ccc(C(=O)NCC2(N3CCCCC3)CCCCC2)c(OC)c1OC | inactive: -0.085%
CCC(c1nnnn1C1CCCC1)N1CCC(n2c(=O)[nH]c3ccccc32)CC1 (stereo not given) | inactive: 0.645%
COc1ccc(C(=O)NCC2(N3CCCCC3)CCCCC2)cc1 | inactive: 0.43%
O=C(NCC1(N2CCCCC2)CCCCC1)c1cccs1 | inactive: 1.21%
CCCCn1nnnc1C(CC)N1CCC(n2c(=O)[nH]c3ccccc32)CC1 (stereo not given) | inactive: 2.63%
CCCCn1nnnc1C(c1cccs1)N1CCC(n2c(=O)[nH]c3ccccc32)CC1 (stereo not given) | inactive: 0.925%
O=C(NCC1(N2CCCCC2)CCCCC1)c1ccc(=O)[nH]c1 | inactive: 1.17%
CCOC(=O)N1CCC(Nc2cccc(C)c2)CC1 | inactive: 0.081%
COc1cc(C(=O)NCC2(N(C)C)CCCCC2)ccc1OC(F)F | inactive: 1.41%
O=c1[nH]c2ccccc2n1C1CCN(C(c2cccc3ccccc23)c2nnnn2C2CCCC2)CC1 (stereo not given) | inactive: -0.016%
O=c1[nH]c2ccccc2n1C1CCN(C(c2ccccc2)c2nnnn2C2CCCCC2)CC1 (stereo not given) | inactive: -0.101%
CCOC(=O)N1CCC(Nc2ccc(F)cc2)CC1 | inactive: -3.73%
